The list shows a part of the results, in another mix than the full data. Calls of active or inactive are those of the source.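 The calls were made as follows: active = mean replicate score, as percent of positive control median, at least 50; inconclusive = mean below 50 but one replicate at or above 50; inactive = mean and every replicate below 50.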

One may read the inhibition as the change of the read-out against control, counted positive when it falls.

A short description of this assay: kanamycin survival loss of SKKanGAS strain – BacTiter-Glo luminescence, streptokinase expression inhibitor project, primary screen (AID 1662).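 Also: strain carries kanamycin resistance gene driven by streptokinase promoter and grows in 40 µg/ml kanamycin; loss of luminescence reflects streptokinase promoter inhibition or plain growth inhibition; 0% = median of DMSO wells and 100% = positive control at its reference dose.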 Particulars: S. pyogenes SKKanGAS, kanamycin growth, 6 h, at 7.5 µM, stronger effect = higher value.
With `COc1ccc(C(=O)NCC2(N3CCOCC3)CCCCC2)cc1OC`, the inhibition was inactive: 4.2%.

With `CCOC(=O)N1CCC(Nc2ccc(C)cc2)CC1`, the inhibition is inactive: 3.15%. The value for `N/C(=N\O)c1c(N)no[n+]1[O-]` was inactive: 2.45%; that for `O=C(OC1CN2CCC1CC2)C1c2ccccc2C=Cc2ccccc21` (centres undefined) was inactive: 0.331%. `CCc1cc(C(=O)NCC2(N3CCCCC3)CCCCC2)sc1C`: the inhibition is inactive: -26.6%.

For `N#Cc1ccc(C(=O)NCC2(N3CCCCC3)CCCCC2)cc1`, the inhibition is inactive: 3.48%.

For `CC(C)(C)OC(=O)N1CCC(N(C(=O)c2ccccc2)c2ccc(Cl)cc2)CC1`, the inhibition is inactive: 7.38%. For the compound `CN(C)C1(CNC(=O)c2cccc(C#N)c2)CCCCC1`, the inhibition is inactive: 4.62%. Take `CCCN1CCC(Nc2cc(OC)cc(OC)c2)CC1`: the inhibition was inactive: -1%. The value for `c1ccc(CN2CCC(Nc3ccccc3)CC2)cc1` was inactive: -4.27%; that for `COc1cc(OC)cc(C(=O)NCC2(N3CCCCC3)CCCCC2)c1` was inactive: -2.16%; that for `Fc1ccccc1NC1CCN(Cc2ccccc2)CC1` was inactive: 2.16%.

As for `Cc1ccc(C(=O)NCC2(N3CCCCC3)CCCCC2)o1`, the inhibition is inactive: 0.973%. The result for `CCN1CCC(Nc2cccc(F)c2)CC1` reads inactive: -4.72%; that for `CN(C)c1ccc(C(=O)NCC2(N3CCCCC3)CCCCC2)cc1`, inactive: 4.32%; that for `CN1CCC(Nc2ccc(F)c(Cl)c2)CC1`, inactive: 5.76%. `CCOc1ncccc1C(=O)NCC1(N2CCOCC2)CCCCC1`: the inhibition is inactive: -26%. As for `O=C(O)C1(Nc2ccccc2)CCN(Cc2ccccc2)CC1`, the inhibition was inactive: 1.9%. Take `CC(C)(C)OC(=O)N1CCC(Nc2ccccc2)CC1`: the inhibition is inactive: 5.87%. On to `CCCOc1ccc(C(=O)NCC2(N(C)C)CCCCC2)cc1`, for which the inhibition is inactive: 2.98%.

Take `COc1cccc(C(=O)N(c2cc(C)cc(C)c2)C2CCN(C(=O)OC(C)(C)C)CC2)c1`: the inhibition was inactive: 1.89%. Turning to `COc1cc(OC)cc(C(=O)NCC2(N3CCOCC3)CCCCC2)c1`, the inhibition was inactive: -13.6%.

Consider `CCC(CO)(C(=O)OC1CN2CCC1CC2)c1ccccc1` (centres undefined), for which the inhibition is inactive: -8.26%. Regarding `CN1CCC(Nc2ccc(Cl)cc2)CC1`, the inhibition was inactive: 3.75%.

`CCCOc1ccc(C)cc1CN(CCCl)CCCl`: the inhibition was inactive: 7.27%.

Turning to `CC(C)(C)OC(=O)N1CCC(N(C(=O)c2ccccc2)c2ccc(F)cc2)CC1`, the inhibition was inactive: 0.62%. For the compound `COc1ccc(C(=O)NCC2(N3CCCCC3)CCCCC2)c(OC)c1OC`, the inhibition was inactive: 12.5%. Turning to `COc1ccc(C(=O)NCC2(N3CCCCC3)CCCCC2)cc1`, the inhibition was inactive: -5.06%. The result for `O=C(NCC1(N2CCCCC2)CCCCC1)c1cccs1` reads inactive: -2.21%; that for `O=C(NCC1(N2CCCCC2)CCCCC1)c1ccc(=O)[nH]c1`, inactive: -5.05%; that for `CSc1ccccc1C(=O)NCC1(N2CCCCC2)CCCCC1`, inactive: -1.32%. In the case of `Cc1cc(C)cc(N(C(=O)c2ccccc2)C2CCN(C(=O)OC(C)(C)C)CC2)c1`, the inhibition was inactive: 12.9%.

For `O=C(NCC1(N2CCCCC2)CCCCC1)c1ccc(Cl)nc1`, the inhibition was inactive: -6.07%. The value for `O=C(NCC1(N2CCOCC2)CCCCC1)c1cc2ccccc2o1` was inactive: 1.88%. For the compound `O=C(OC1CN2CCC1CC2)C1c2ccccc2Oc2ccccc21` (centres undefined), the inhibition was active: 60.9%. With `N#CC1(Nc2ccccc2)CCN(Cc2ccccc2)CC1`, the inhibition was inactive: 3.3%. Regarding `CCOC(=O)N1CCC(Nc2ccc(OC)cc2)CC1`, the inhibition was inactive: -7.01%. As for `CCOc1ccc(C)cc1CN(CCCl)CCCl`, the inhibition was inactive: 9.33%. In the case of `CCOC(=O)N1CCC(Nc2ccc(F)cc2)CC1`, the inhibition was inactive: -1.35%.

Turning to `COc1ccc(NC2CCN(CCc3ccccc3)CC2)c(OC)c1`, the inhibition was inactive: -1.69%. In the case of `O=C(NCC1(N2CCCCC2)CCCCC1)c1ccc(F)cc1`, the inhibition was inactive: 0.747%. The result for `Cc1ccc(OCC(C)C)c(CN(CCCl)CCCl)c1` reads inactive: 1.98%.

As to `COc1cc(C(=O)NCC2(N(C)C)CCCCC2)ccc1OC(F)F`, the inhibition is inactive: -3.37%. For `CCOC(=O)N1CCC(Nc2cccc(C)c2)CC1`, the inhibition was inactive: 4.17%. As to `O=C(NCC1(N2CCCCC2)CCCCC1)c1ccc(OC(F)F)cc1`, the inhibition was inactive: 5%. Turning to `N#CC1(Nc2ccccc2)CCN(CCc2ccccc2)CC1`, the inhibition is inactive: 0.767%.

Regarding `CCN1CCC(Nc2ccc(Cl)cc2)CC1`, the inhibition is inactive: 1.46%. In the case of `O=C(NCC1(N2CCCCC2)CCCCC1)c1cccc([N+](=O)[O-])c1`, the inhibition was inactive: -0.805%. With `O=C(NCC1(N2CCCCC2)CCCCC1)c1cccc(C(F)(F)F)c1`, the inhibition is inactive: 4.16%. For the compound `O=C(NCC1(N2CCOCC2)CCCCC1)c1cc(=O)[nH]c2ccccc12`, the inhibition is inactive: -8.8%. Take `COc1cc(C(=O)NCC2(N3CCCCC3)CCCCC2)ccc1OC(F)F`: the inhibition is inactive: -6.75%.

With `COc1ccc(NC2CCN(C(=O)OC(C)(C)C)CC2)cc1`, the inhibition is inactive: 1.08%. As for `CN1CCN(CCOC(=O)C(O)(c2ccccc2)c2ccccc2)CC1`, the inhibition is inactive: -19.3%. On to `CC(C)c1ccc(NC2CCN(C(=O)OC(C)(C)C)CC2)cc1`, for which the inhibition is inactive: 3.24%. The value for `CN(C)c1cccc(C(=O)NCC2(N3CCCCC3)CCCCC2)c1` was inactive: -2.77%; that for `COc1ccc(CN(CCCl)CCCl)cc1Cl` was inactive: 0.691%.

`COc1cc(OC)c(C(=O)NCC2(N(C)C)CCCCC2)cc1OC`: the inhibition was inactive: -3.58%. With `CN1CCC(Nc2cccc(F)c2)CC1`, the inhibition is inactive: -18.8%. The result for `CCCOc1ccc(C(=O)NCC2(N(C)C)CCCCC2)cc1OC` reads inactive: 6.79%.

The values are drawn from PubChem BioAssay AID1662 (Broad Institute, 2009).
